The values that follow are results of earlier work, collected in article PMC10467137, “In Silico–Ex Vitro Iteration Strategy for Affinity Maturation of Anti-Ricin Peptides and the SPR Biosensing Application” (2023).

By Kd is commonly meant a measure of binding affinity in units of concentration.

The data set concerns the target ricin (Ricinus communis, UniProt P02879). The settings on record: cited from earlier work.

The structures given here were assigned with low confidence; some may be wrong.

On to `CC[C@H](C)[C@H](NC(=O)[C@H](CCC(=O)O)NC(=O)[C@H](CO)NC(=O)[C@H](Cc1c[nH]cn1)NC(=O)[C@H](Cc1c[nH]cn1)NC(=O)[C@H](Cc1c[nH]cn1)NC(=O)[C@H](CCCNC(=N)N)NC(=O)[C@H](Cc1c[nH]cn1)NC(=O)[C@@H]1CCCN1C(=O)[C@@H](N)Cc1c[nH]c2ccccc12)C(=O)NCC(=O)N[C@@H](Cc1c[nH]cn1)C(=O)O`, for which the dissociation constant Kd was 1000 nM.
